Pooled drug test results. Numbers come from NIAID ChemDB, via PubChem.

Shared fields: tests in culture; organism: HIV-1; endpoint: EC50

Blank or dashed fields: not listed here. Conditions beyond the fields shown may differ between rows. ECn is the concentration giving n% inhibition of infection, replication or growth.

SMILES	setting	mutations	strain	read by	cell line	result
Cc1cn([C@H]2C[C@H](N=[N+]=[N-])[C@@H](CO)O2)c(=O)[nH]c1=O			D79	p24 / ELISA	Macrophage + Monocytes/macrophages	0.027 µM
O=c1[nH]cnc2c1ncn2[C@@H]1O[C@H](OCP(=O)(O)O)C=C1F			IIIB	ATP	MT-2	>300 µM
Cc1ccc(-c2ccc3c(c2)C=C(C(=O)Nc2ccc(C[N+](C)(C)C4CCOCC4)cc2)CCC3)cc1				cell fusion / luminescence	TZM-bl + HL2/3	3.65 µM
CC(C)Nc1cccnc1N1CCN(C(=O)c2cc3cc(NS(C)(=O)=O)ccc3[nH]2)CC1		RT-A62V S68G T69D V75I F77L F116Y Q151M	BI-12.96 (HXB2(RT-A62V S68G T69D V75I F77L F116Y Q151M))	cytopathic effect	MT-4	0.1 µM
Nc1ccn([C@H]2CC[C@@H](CO)O2)c(=O)n1	5 d		NL4-3 WT	cytopathic effect / XTT / RT activity	MT-2	3.2 µM
CC(C)[C@@H](C)/C=C/[C@@H](C)[C@H]1CCC2[C@@]34C=C[C@]5(C[C@@H](O)CC[C@]5(C)C3CC[C@@]21C)OO4				cytopathic effect / microscopy	MT-4	>15.6 µM
O=c1[nH]cnc2c1ncn2[C@H]1CC[C@@H](CO)O1		RT-A62V S68G T69D V75I F77L F116Y Q151M	BI-03.97 (HXB2(RT-A62V S68G T69D V75I F77L F116Y Q151M))	cytopathic effect	MT-4	349 µM
Cc1occc1C(=S)Nc1ccc(Cl)c(/C=N/OC(C)(C)C)c1			IIIB	cytopathic effect	C8166	0.019 µg/mL
CCc1c(CC23CC4CC(CC(C4)C2)C3)nc(SCC(=O)Nc2ccc(S(N)(=O)=O)cc2)[nH]c1=O			IIIB	MTT / absorbance	MT-4	0.12 µM
C[C@H](CC[C@H](O)C(C)(O)CO)[C@H]1CC[C@@]2(C)C3=CC[C@H]4C(C)(C)C(=O)CC[C@]4(C)C3=CC[C@]12C				cytopathic effect / microscopy	MT-4	<7.8 µM
CC1=CC2=C(C(C)C)C(O)C(=O)/C(=C\N[C@@H](C(=O)O)C(C)C)C2C(O)=C1c1c(C)cc2c(C(C)C)c(O)c(O)c(C=N[C@H](C(=O)O)C(C)C)c2c1O.[Na+].[Na+]			NL4-3	luciferase / reporter gene	TZM-bl	0.17 µM
N#CN=C1N(CC2CCCC2)[C@H](Cc2ccccc2)[C@H](O)[C@@H](O)[C@@H](Cc2ccccc2)N1CC1CCCC1			RF	hybridisation	MT-2	<0.35 µM
Nc1ncnc2c1ncn2[C@@H]1O[C@H](CO)C[C@@H]1F	5 d		IIIB	cytopathic effect / XTT / RT activity	MT-2	25 µM
Cc1cn([C@H]2C[C@H](N=[N+]=[N-])[C@@H](CO)O2)c(=O)[nH]c1=O	4 d		BR-92-025 (subtype C)	p24 / ELISA / antigen	PBMCs	0.26 µM
Cc1ccc(S(=O)(=O)N(CC(C)C)C[C@@H](O)[C@H](Cc2ccccc2)NC(=O)O[C@H]2CO[C@H]3OCC[C@H]32)cc1		8374-P62	IIIB	ATP	MT-2	0.0138 µM
O=C1N(Cc2ccc(CO)cc2)[C@H](Cc2ccccc2)[C@H](O)[C@@H](O)[C@@H](Cc2ccccc2)N1Cc1ccc(CO)cc1			A018C POST AZT	virus yield	MT-2	<0.32 µM
CCc1c(CC23CC4CC(CC(C4)C2)C3)nc(SCC(=O)Nc2ccccc2)[nH]c1=O			RES056	MTT / absorbance	MT-4	>15.88 µM
Nc1nc(NC2CC2)c2ncn([C@H]3C=C[C@@H](CO)C3)c2n1			IIIB	ATP	MT-2	0.32 µM
Cc1cn([C@H]2C[C@H](N=[N+]=[N-])[C@@H](CO)O2)c(=O)[nH]c1=O			NL4-3	cytopathic effect / neutral red	MT-2	0.031 µM
Cc1[nH]c(=O)c(F)cc1Cn1cnc(C(F)(F)C(F)F)c(Oc2cc(C(F)F)cc(C#N)c2C)c1=O				RT activity / fluorescence		3.634 µM
Cc1cn([C@H]2C[C@H](N=[N+]=[N-])[C@@H](CO)O2)c(=O)[nH]c1=O		K112M K113E V128I	IIIB	p24 / ELISA	MT-2	0.153 µM
CCCN1C(=NC#N)N(CCC)[C@H](Cc2ccccc2)[C@H](O)[C@@H](O)[C@H]1Cc1ccccc1			RF	hybridisation	MT-2	<7.4 µM
COC(=O)CNP(=O)(OC[C@H]1C=C[C@@H](n2cnc3c(N)ncnc32)C1)Oc1ccccc1			IIIB	cytopathic effect / MTS	MT-4	7.3 µM
N#CC[C@H](C1CCCC1)n1cc(-c2ncnc3[nH]ccc23)cn1				p24 / ELISA	PBMC	0.1 µM
C#CC1(CO)OC(n2cnc3c(N)nc(F)nc32)C2C=CC21			NL4-3	p24 / antigen	PBMC	0.014 µM
O=C(O)[C@H]1O[C@@H](Oc2cc3oc(-c4ccccc4)cc(=O)c3c(O)c2O)[C@H](O)[C@@H](O)[C@@H]1O			MN	cytopathic effect / p24 / ELISA	PBMC	0.5 µg/mL
Cc1c(CC23CC4CC(CC(C4)C2)C3)nc(SCC(=O)Nc2ccc(S(N)(=O)=O)cc2)[nH]c1=O			IIIB	MTT / absorbance	MT-4	>4.99 µM
Cc1cc(=O)c2ccc(N=C=S)cc2o1			ADA	p24 / ELISA	CEM-GFP	0.186 µM
COC(=O)C[C@H](NP(=O)(OC[C@H]1C=C[C@@H](n2cnc3c(N)ncnc32)C1)Oc1ccccc1)C(=O)OC			IIIB	cytopathic effect / MTS	MT-4	>1 µM
Cc1ccnc2c1NC(=O)c1cccnc1N2C1CC1		RT-V179D	IIIB	cytopathic effect	CEM	0.25 µg/mL
C[C@H](Cn1cnc2c(N)ncnc21)OCP(=O)(O)O			IIIB	ATP	MT-2	3.6 µM
C=CCN1C(=NC#N)N(CC=C)[C@H](Cc2ccccc2)[C@H](O)[C@@H](O)[C@H]1Cc1ccccc1			RF	hybridisation	MT-2	<51 µM
Nc1nc(N)c2ncn([C@@H]3O[C@H](OCP(=O)(O)O)C=C3F)c2n1			IIIB	ATP	MT-2	>300 µM
CC(C)CN(C[C@@H](O)[C@H](Cc1ccccc1)NC(=O)O[C@H]1CCOC1)S(=O)(=O)c1ccc(N)cc1			IIIB	p24 / ELISA	MT-2	0.0473 µM
CO[C@@H]1C=C2C3CC[C@H]([C@H](C)/C=C/C(C)C(C)C)[C@@]3(C)CCC2[C@@]2(C)CC[C@H](O)C[C@]12O				cytopathic effect / microscopy	MT-4	>31.3 µM
CC(C)[C@H](NC(=O)c1ccc2ccccc2n1)C(=O)N[C@@H](Cc1ccccc1)[C@H](O)CN1CC[C@@H](OCc2ccncc2)C[C@H]1C(=O)NC(C)(C)C			NEVR	p24 / ELISA / antigen	C8166	0.0014 µM
C=C(C)C(O)Cc1cc(C(C)=O)ccc1O				p24 / syncytia	C8166	>50 µg/mL
CC(C)=CCN1Cc2cccc3[nH]c(=S)n(c23)C[C@@H]1C		RT-P236L	IIIB HEPT-resistant (RT P236L)	cytopathic effect / XTT	CEM + CEM-SS	0.1 µM
Cc1ccnc2c1NC(=O)c1cccnc1N2C1CC1			IIIB	MTT	MT-4	0.118 µM
Cc1ccnc2c1NC(=O)c1cccnc1N2C1CC1			IIIB	MTT / absorbance	MT-4	0.26 µM
CC1=CC2=C(C(C)C)C(O)C(=O)/C(=C\N[C@H](CC(C)C)C(=O)O)C2C(O)=C1c1c(C)cc2c(C(C)C)c(O)c(O)c(C=N[C@@H](CC(C)C)C(=O)O)c2c1O.[Na+].[Na+]			NL4-3	luciferase / reporter gene	TZM-bl	0.22 µM
COC(=O)[C@H](C)NP(=O)(OC[C@H]1C=C[C@@H](n2cnc3c(N)ncnc32)C1)Oc1ccc(Cl)cc1			IIIB	cytopathic effect / MTS	MT-4	0.013 µM
Cc1cn([C@H]2C[C@H](N=[N+]=[N-])[C@@H](CO)O2)c(=O)[nH]c1=O		RT-V90I T139I P225S	IIIB	cytopathic effect / XTT	CEM + CEM-SS	0.01 µM
Cc1ccnc2c1NC(=O)c1cccnc1N2C1CC1			D79	p24 / ELISA	Macrophage + Monocytes/macrophages	0.026 µM
CCc1c(CC23CC4CC(CC(C4)C2)C3)nc(SCC(=O)c2ccccc2)[nH]c1=O			RES056	MTT / absorbance	MT-4	>20.42 µM
Cc1cn([C@H]2C[C@@H](N=[N+]=[N-])[C@@H](CO)O2)c(=O)[nH]c1=O			NL4-3	p24 / antigen	PBMC	0.022 µM
CCc1c(Sc2ccccn2)n(COCc2ccccc2)c(=O)[nH]c1=O		RT-P236L	IIIB	cytopathic effect / XTT	CEM + CEM-SS	1.1 µM
C#Cc1ccc(Nc2nccc(Oc3c(C)cc(-c4cn(Cc5ccc(O)cc5)nn4)cc3C)n2)cc1			RES056	MTT	MT-4	>2.1 µM
CC(C)=CCN1C(=NC#N)N(CC=C(C)C)[C@H](Cc2ccccc2)[C@H](O)[C@@H](O)[C@H]1Cc1ccccc1			RF	hybridisation	MT-2	<4.7 µM
C#C[C@@]1(CO)CC[C@H](n2cnc3c(N)nc(F)nc32)O1			NL4-3	p24 / antigen	PBMC	0.57 µM
COC(=O)[C@@H](NP(=O)(OC[C@H]1C=C[C@@H](n2cnc3c(N)ncnc32)C1)Oc1ccccc1)C(C)C			IIIB	cytopathic effect / trypan blue	MT-4	1.09 µM
Cc1cn([C@H]2C[C@H](N=[N+]=[N-])[C@@H](CO)O2)c(=O)[nH]c1=O		K65R		p24 / ELISA	Primary T lymphocytes	0.04 µM
C=C(C)C1Oc2ccc(C(C)=O)cc2C1O				p24 / syncytia	C8166	>50 µg/mL
N#CN=C1N(Cc2cccc(CO)c2)[C@H](Cc2ccccc2)[C@H](O)[C@@H](O)[C@@H](Cc2ccccc2)N1Cc1cccc(CO)c1			RF	hybridisation	MT-2	<0.59 µM
Cc1ccnc2c1NC(=O)c1cccnc1N2C1CC1			IIIB	cytopathic effect / XTT	AA5	0.07 µM
C#Cc1ccc(Nc2nccc(Oc3c(C)cc(-c4cn(CCC(=O)OC)nn4)cc3C)n2)cc1			IIIB	MTT	MT-4	0.27 µM
O=c1[nH]cnc2c1ncn2[C@H]1CC[C@@H](CO)O1	5 d		MB48 ddI-resistant	cytopathic effect / XTT / RT activity	MT-2	20 µM
CC[C@@H](C)[C@@H](N/C=C1\C(=O)C(O)C(C(C)C)=C2C=C(C)C(c3c(C)cc4c(C(C)C)c(O)c(O)c(C=N[C@H](C(=O)O)[C@@H](C)CC)c4c3O)=C(O)C21)C(=O)O.[Na+].[Na+]			NL4-3	luciferase / reporter gene	TZM-bl	0.1 µM
Cc1cn([C@H]2C[C@H](N=[N+]=[N-])[C@@H](CO)O2)c(=O)[nH]c1=O			FO-01.95	cytopathic effect	MT-4	0.034 µM
C#Cc1ccc(Nc2nccc(Oc3c(C)cc(-c4cn(Cc5ccc(C#N)cc5)nn4)cc3C)n2)cc1		K103N	IIIB	MTT	MT-4	0.42 µM
CCc1c(C(=O)c2cc(C)cc(C)c2)n(CC2CC=CC2)c(=O)[nH]c1=O			SK1	cytopathic effect / XTT	CEM + CEM-SS	0.002 µM
C#Cc1ccc(Nc2nccc(Oc3c(C)cc(-c4cn(CCCC(=O)OC)nn4)cc3C)n2)cc1		E138K	IIIB	MTT	MT-4	1.68 µM
CSc1c(C)c(SC)n2ccncc12			IIIB	MTT / p24	H9	~25 µM
Cc1cn([C@H]2C[C@H](N=[N+]=[N-])[C@@H](CO)O2)c(=O)[nH]c1=O			Y181C (subtype B)	MTT	MT-4	0.0002 µg/mL
O=c1[nH]cnc2c1ncn2C1CC[C@@H](CO)O1		M184V		p24 / ELISA	Primary T lymphocytes	11.5 µM
C#Cc1ccc(Nc2nccc(Oc3c(C)cc(-c4cn(CC(=O)Nc5ccc(Br)cc5)nn4)cc3C)n2)cc1		Y188L	IIIB	MTT	MT-4	>19.78 µM
CC(C)=CCN1Cc2cc(Cl)cc3[nH]c(=S)n(c23)C[C@@H]1C			HE	cytopathic effect	MOLT-4	0.25 µg/mL
O=C1N(Cc2ccccc2)[C@H](Cc2ccccc2)[C@H](O)[C@@H](O)[C@@H](Cc2ccccc2)N1Cc1ccccc1			RF	hybridisation	MT-2	<0.83 µM
C[C@H](CC(=O)C[C@@H](C)[C@H]1C[C@H](O)[C@@]2(C)C3=C(C(=O)C[C@]12C)[C@@]1(C)CCC(=O)C(C)(C)[C@@H]1C[C@@H]3O)C(=O)O				cytopathic effect / microscopy	MT-4	~1000 µM
c1cc(CN2CCCNCCNCCCNCC2)ccc1CN1CCCNCCNCCCNCC1			92UG021 (subtype D)	MTT	MT-4	0.002 µg/mL
C[C@H](CC[C@H](O)C(C)(O)CO)[C@H]1CC[C@@]2(C)C3=CCC4C(C)(C)[C@@H](O)CC[C@]4(C)C3=CC[C@]12C				cytopathic effect / microscopy	MT-4	>1000 µM
C#C[C@]1(CO)O[C@@H](n2cnc3c(N)nc(F)nc32)C[C@@H]1O		C162Y/M184V	Clinical isolate	fluorescence	MT4-GFP	0.01333 µM

Repeating the first 5 entries:

SMILES,setting,mutations,strain,read by,cell line,result
Cc1cn([C@H]2C[C@H](N=[N+]=[N-])[C@@H](CO)O2)c(=O)[nH]c1=O,,,D79,p24 / ELISA,Macrophage + Monocytes/macrophages,0.027 µM
O=c1[nH]cnc2c1ncn2[C@@H]1O[C@H](OCP(=O)(O)O)C=C1F,,,IIIB,ATP,MT-2,>300 µM
Cc1ccc(-c2ccc3c(c2)C=C(C(=O)Nc2ccc(C[N+](C)(C)C4CCOCC4)cc2)CCC3)cc1,,,,cell fusion / luminescence,TZM-bl + HL2/3,3.65 µM
CC(C)Nc1cccnc1N1CCN(C(=O)c2cc3cc(NS(C)(=O)=O)ccc3[nH]2)CC1,,RT-A62V S68G T69D V75I F77L F116Y Q151M,BI-12.96 (HXB2(RT-A62V S68G T69D V75I F77L F116Y Q151M)),cytopathic effect,MT-4,0.1 µM
Nc1ccn([C@H]2CC[C@@H](CO)O2)c(=O)n1,5 d,,NL4-3 WT,cytopathic effect / XTT / RT activity,MT-2,3.2 µM